Results of unrelated studies side by side (data: NIAID ChemDB).

All rows: whole-cell or culture tests; species: Herpes simplex virus 1; measure: inhibition

Conditions beyond the fields shown may differ between rows. Percent inhibition refers to the dose given; in toxicity tests it is the harm to the cells. An empty or dashed field is not shown.

smiles,tested at,strain or isolate,cells,method,result
Nc1[nH]c(=S)nc2c1C(c1ccc([N+](=O)[O-])cc1)c1c([nH]c(=S)[nH]c1=O)O2,10 µg/mL,-,VERO,-,70%
O=c1[nH]c(=O)n([C@H]2C[C@H](O)[C@@H](CO)O2)cc1CCI,1 µg/mL,-,HEP-2,cytopathic effect,≥25%
O=c1[nH]c(=O)n([C@H]2C[C@H](O)[C@@H](CO)O2)cc1I,0.3 µg/mL,-,HEP-2,cytopathic effect,≥25%
NC(=Nc1ccc(Cc2ccc(N=C(N)c3ccccc3)cc2)cc1)c1ccccc1,5 µM,-,VERO,plaque count,<50%
O=c1[nH]c(=O)n([C@H]2C[C@H](O)[C@@H](CO)O2)cc1CCBr,3 µg/mL,-,HEP-2,cytopathic effect,≥25%
Cc1cn([C@@H]2O[C@H](CO)[C@@H](O)[C@@H]2F)c(=O)[nH]c1=O,0.04 µg/mL,KOS,PRK,cytopathic effect,≥25%
CCCn1cnc(=N)c2[nH]cnc21,50 µg/mL,-,BSC-1,plaque count,0%
CC(=O)O[C@H]1C[C@](C)(O)/C=C/C[C@@H](C)/C=C/[C@@]2(C)CC[C@@H](C(C)(C)OC(C)=O)[C@H]12,15 µM,-,VERO,cytopathic effect,89%
CCn1cnc(=N)c2[nH]cnc21,12 µg/mL,-,BSC-1,plaque count,0%
Cc1cn([C@@H]2O[C@H](CO)[C@@H](O)[C@@H]2F)c(=O)[nH]c1=O,0.1 µM,F,VERO,virus yield,45%
COc1cccc2c1C(=O)c1c(O)c3c(c(O)c1C2=O)C[C@@](O)(C(C)=O)C[C@@H]3O[C@H]1C[C@H](N(C)C)[C@H](O)[C@H](C)O1,0.5 µM,-,VERO,virus yield,0%
CSC(=Nc1ccc(Oc2ccc(/C=C(/Nc3ccccc3)SC)cc2)cc1)Nc1ccccc1,5 µM,-,VERO,plaque count,0%
C/C=C/c1cn([C@H]2C[C@H](O)[C@@H](CO)O2)c(=O)[nH]c1=O,10 µM,C42,VERO,plaque count,93%
O=[N+]([O-])c1ccc(C2c3c(nc(=S)[nH]c3Cl)Oc3nc(=S)[nH]c(Cl)c32)cc1,50 µg/mL,-,VERO,-,90%
O=c1[nH]c(=O)n([C@@H]2C[C@H](O)[C@@H](CO)O2)cc1CCBr,3 µg/mL,-,HEP-2,cytopathic effect,≥25%
O=[N+]([O-])c1ccc(NC(=S)Nc2ccc(Cc3ccc(NC(=S)Nc4ccc([N+](=O)[O-])cc4)cc3)cc2)cc1,5 µM,-,VERO,plaque count,0%
Nc1nc(=O)n([C@@H]2O[C@H](CO)[C@@H](O)[C@@H]2F)cc1I,0.01 µM,F,VERO,virus yield,61%
Nc1nc2c(ncn2COCCO)c(=O)[nH]1,1 µg/mL,VL8737,HL,virus yield,17%
Nc1nc2c(ncn2COC(CO)CO)c(=O)[nH]1,0.2 µg/mL,KOS,PRK,cytopathic effect,≥25%
Cc1cccc(Cn2cnc(=N)c3[nH]cnc32)c1,12 µg/mL,-,BSC-1,plaque count,0%
Nc1nc(=S)c2[nH]c(-c3cscn3)nc2[nH]1,10 µg/mL,-,VERO,plaque count,0%
Nc1nc2c(ncn2COCCO)c(=O)[nH]1,0.3 µg/mL,7401H,VERO,virus yield,>99%
Nc1nc2c(ncn2COC(CO)CO)c(=O)[nH]1,1.8 µM,KOS mutant PFA-R3,WI-38,plaque count,90%
O=c1ccn([C@@H]2O[C@H](CO)[C@@H](O)[C@@H]2F)c(=O)[nH]1,0.1 µM,F,VERO,virus yield,74%
Cc1cccc(NS(=O)(=O)c2ccc(Oc3ccc(S(=O)(=O)Nc4cccc(C)c4)cc3)cc2)c1,5 µM,-,VERO,plaque count,0%
O=c1[nH]c(=O)n([C@H]2C[C@H](O)[C@@H](CO)O2)cc1CCCCl,0.3 µg/mL,-,HEP-2,cytopathic effect,≥25%
C/C=C/c1cn([C@@H]2O[C@H](CO)[C@@H](O)[C@@H]2O)c(=O)[nH]c1=O,100 µM,C42PFA-R,VERO,plaque count,50%
CNc1[nH]c(=S)nc2c1C(c1ccc([N+](=O)[O-])cc1)c1c([nH]c(=S)[nH]c1=O)O2,10 µg/mL,-,VERO,-,50%
N=c1ncn(CC2CCCCC2)c2nc[nH]c12,12 µg/mL,-,BSC-1,plaque count,0%
O=c1[nH]c(=O)n([C@H]2C[C@H](O)[C@@H](CO)O2)cc1CCCl,0.01 µg/mL,-,VERO,cytopathic effect,≥25%
O=c1[nH]c(=O)n([C@@H]2O[C@H](CO)[C@@H](O)[C@@H]2F)cc1I,1 µM,F,VERO,virus yield,99.7%

2 of the rows above, restated:

smiles	tested at	strain or isolate	cells	method	result
NC(=Nc1ccc(Cc2ccc(N=C(N)c3ccccc3)cc2)cc1)c1ccccc1	5 µM	-	VERO	plaque count	<50%
N=c1ncn(CC2CCCCC2)c2nc[nH]c12	12 µg/mL	-	BSC-1	plaque count	0%